Anti-infective test results gathered from many reports (values: NIAID ChemDB through PubChem).

Common to all: whole-cell or culture tests; agent: Mycobacterium tuberculosis

Lines come from different laboratories, so protocols vary.

compound,changes,measure,dose,strain,method,value
CO[C@H]1/C=C/O[C@@]2(C)Oc3c(C)c(O)c4c(=O)c(c5oc6cc(N7CCN(CC(C)C)CC7)cc(=O)c6nc5c4c3=C2O)NC(=O)/C(C)=C\C=C\[C@H](C)[C@H](O)[C@@H](C)[C@@H](O)[C@@H](C)[C@H](OC(C)=O)[C@@H]1C,-,MBC,-,Atencio,-,0.008 µg/mL
Cc1cc(N/N=C(/c2ccccc2)c2ccccn2)nc2ccccc12,-,MIC bound,-,H37Rv,BACTEC,≤12.5 µg/mL
CCOC(=O)c1c(NC(=O)c2c(F)c(F)c(F)c(F)c2F)sc2c1CCNC2=O,rpoB S522L mutant,MIC,-,H37Rv,turbidity,1.5 µM
O=c1c(/C=N/c2nc3ccc(Cl)cc3s2)coc2ccc(Cl)cc12,-,MIC,-,H37Rv,-,10 µg/mL
CCNc1cc(N)[n+](CC)c2n[nH]c(/N=C/c3cc(Cl)cc(Cl)c3O)c12,-,MIC bound,-,H37Rv,BACTEC,>12.5 µg/mL
Nc1c(NC(=O)/C=C/c2ccccc2)cc(Cl)cc1[N+](=O)[O-],-,MIC,-,Isolate 192,broth dilution,>100 µg/mL
C[C@]1(COc2ccc(N3CCN(C/C=C/c4cc(Cl)cc(Cl)c4Cl)CC3)cc2)Cn2cc([N+](=O)[O-])nc2O1,-,MIC,-,H37Rv,-,0.006 µg/mL
C/C([O-])=N/c1on[n+](-c2ccccc2)c1-c1ccccc1,-,inhibition,12.5 µg/mL,H37Rv,BACTEC,6%
CN(C)c1cccc(-c2cc(C(F)(F)F)nc3c(C(F)(F)F)cccc23)c1,-,MIC,-,-,-,>128 µM
O=C(N/N=C/c1coc2ccc(Cl)cc2c1=O)c1ccncc1,-,MIC,-,H37Rv,-,1 µg/mL
COc1cc(C(=O)OC2CC34CCNC35CC(OC5(OC)C2O)c2cc3c(cc24)OCO3)ccc1O,-,MIC bound,-,H37Rv,BACTEC,>12.5 µg/mL
Cc1c2c(cc(CO)c1C(O)CO)[C@@H](O)[C@H](C)C2=O,-,MIC,-,H37Rv,agar,47 µM
O=c1n(-c2ccccc2)c(=O)n2n1C1C=CC2CCCCCC1,-,MIC bound,-,H37Rv,resazurin,>6.25 µg/mL
COC(=O)[C@@H]1[C@H](O)[C@H](C)C(O)[C@H](C)/C=C\C=C(/C)C(=O)Nc2c(C)c(OC(C)=O)c3c(c2O)C(=O)C(C)=C2OCOC(=C23)/C(C)=C/[C@@](C)(O)[C@H](O)[C@@H](C)[C@H]1OC(C)=O,-,MIC,-,H37Ra,-,6.25 µM
NC[C@H]1O[C@H](O[C@H]2[C@H](O)[C@@H](O[C@H]3O[C@H](CO)[C@@H](O)[C@H](N)[C@H]3O)[C@H](N)C[C@@H]2N)[C@H](O)[C@@H](O)[C@@H]1O,K204 kanamycin-resistant,MIC,-,H37Rv,resazurin,>10 µg/mL
Cc1ccc2occ(/C=N/NC(=O)c3ccccc3O)c(=O)c2c1,-,MIC,-,H37Rv,-,100 µg/mL
N/C(=N\NC(CC(=O)c1ccccc1)c1ccccn1)c1ccccn1,-,MIC,-,H37Rv,-,4 µg/mL
CCn1cc(C(=O)N=Nc2c(O)n(C)c3ccccc23)c(=O)c2ccc(C)nc21,-,MIC,-,-,-,200 µg/mL
O=C(Nc1ccc(Cl)cc1)N1CCCC[C@H]1[C@@H](O)c1cc(C(F)(F)F)nc2c(C(F)(F)F)cccc12,-,MIC,-,-,-,29 µM
CO[C@H]1/C=C/O[C@@]2(C)Oc3c(C)c(O)c4c(O)c(c(/C=N/N5CCN(C)CC5)c(O)c4c3C2=O)NC(=O)/C(C)=C\C=C\[C@H](C)[C@H](O)[C@@H](C)[C@@H](O)[C@@H](C)[C@H](OC(C)=O)[C@@H]1C,-,MIC,-,H37Rv,-,0.6 µg/mL
CC[C@@H](CO)NCCN[C@@H](CC)CO,-,MIC,-,H37Rv,-,≤7.5 µg/mL
Cc1ccc(-c2cn(CC(O)COc3ccc4c(c3)OC3(CCCCC3)CC4=O)nn2)cc1,-,MIC,-,H37Rv,agar,3.13 µg/mL
CC(NC(=O)C1CCC(=O)N1)C(=O)N1CCCC1C(N)=O,-,inhibition,6.25 µg/mL,H37Rv,resazurin,-12%
CCOC1Oc2ccc(Cl)cc2C(=O)/C1=C/Nc1nc2ccccc2s1,-,MIC,-,H37Rv,-,50 µg/mL
C[C@]1(COc2ccc(N3CCN(Cc4cc5ccc(C(F)(F)F)cc5o4)CC3)cc2)Cn2cc([N+](=O)[O-])nc2O1,-,MIC,-,H37Rv,-,0.024 µg/mL
C=C1CCOC2(C(O)C(C)(O)CO)NC(=O)C1(O)NC2=O,-,inhibition,12.5 µg/mL,H37Rv,BACTEC,19%
CCCCc1cn(CC(O)COc2ccc3c(c2)OC2(CCN(C(=O)OC(C)(C)C)CC2)CC3=O)nn1,-,MIC,-,H37Rv,agar,25 µg/mL
O=C(O)CC1CC(O)CC/C1=N\Nc1ccc([N+](=O)[O-])cc1[N+](=O)[O-],-,inhibition,12.5 µg/mL,H37Rv,BACTEC,17%
N/C(=N\NC(CC(=O)c1ccc(-c2ccccc2)cc1)c1ccccn1)c1ccccn1,-,MIC,-,H37Rv,-,8 µg/mL
CC(=O)NS(=O)(=O)c1ccc(N=Nc2c(O)n(-c3ccccc3)n(-c3ccccc3)c2=O)cc1,-,MIC bound,-,H37Rv,BACTEC,>12.8 µg/mL
CCN1CCc2c(sc(NC(=O)c3c(F)c(F)c(F)c(F)c3F)c2C(N)=O)C1,-,MIC,-,ATCC 35822 INH-R2 isoniazid-resistant,turbidity,12 µM
O=C1c2cccnc2-c2nccc3c2c1nc1ccccc13,-,MIC bound,-,H37Rv,resazurin,<6.25 µg/mL
CCOC1Oc2ccc(Cl)cc2C(=O)/C1=C/Nc1nc2ccc(Cl)cc2s1,-,MIC,-,H37Rv,-,25 µg/mL
CO[C@H]1/C=C/O[C@@]2(C)Oc3c(C)c(O)c4c(=O)c(c5oc6cc(N7CCN(CCC(C)C)CC7)cc(=O)c6nc5c4c3=C2O)NC(=O)/C(C)=C\C=C\[C@H](C)[C@H](O)[C@@H](C)[C@@H](O)[C@@H](C)[C@H](OC(C)=O)[C@@H]1C,-,MIC,-,H37Rv,-,0.07 µg/mL
CCCCc1ccc(-n2c3nc(=O)n(C)c(=O)c-3nc3ccccc32)cc1,-,MIC bound,-,H37Rv,BACTEC,≤12.5 µg/mL
CCNC1Oc2cc(C)c(C)cc2C(=O)/C1=C/Nc1ccc2[nH]c(=S)sc2c1,-,MIC,-,H37Rv,-,5 µg/mL
Cc1cccc(C(=O)CC(N/N=C(\N)c2ccccn2)c2ccccn2)c1,-,MIC,-,H37Rv,-,2 µg/mL
O=[N+]([O-])c1cn2c(n1)O[C@@H](COc1ccc(N3CCC(CCc4ccc(OC(F)(F)F)cc4)CC3)cc1)C2,-,MIC,-,H37Rv,-,0.024 µg/mL
C=CC1CN2CCC1CC2C(O)c1ccnc2ccc(OC)cc12.CC([Se][Se]C(C)C(=O)O)C(=O)O,-,inhibition,6.25 µg/mL,H37Rv,resazurin,5%
CCCCCc1ccc(-c2cn(CC(O)COc3ccc4c(c3)OC3(CCCCC3)CC4=O)nn2)cc1,-,MIC,-,H37Rv,agar,0.78 µg/mL
N/C(=N\NC(CC(=O)c1cccc(Cl)c1)c1cccnc1)c1ccccn1,-,MIC,-,H37Rv,-,8 µg/mL
CCNC(=O)c1c(NC(=O)c2c(F)c(F)c(F)c(F)c2F)sc2c1CCN(CC)C2,-,EC90,-,ATCC35838,turbidity,9.4 µM
O=C(CCCC(=O)N/N=C/c1ccccc1O)N/N=C/c1ccccc1O,-,MIC bound,-,H37Rv,BACTEC,>12.5 µg/mL
CN[C@@H]1[C@H](O[C@H]2[C@H](O[C@H]3[C@H](O)[C@@H](O)[C@H](N=C(N)N)[C@@H](O)[C@@H]3N=C(N)N)O[C@@H](C)[C@]2(O)C=O)O[C@@H](CO)[C@H](O)[C@H]1O,-,MIC,-,H37Rv,-,≤6 µg/mL
CN(C)[C@@H]1C(=O)C(C(N)=O)=C(O)[C@@]2(O)C(=O)C3=C(O)c4c(O)ccc(Cl)c4[C@@H](O)[C@H]3C[C@@H]12,-,MIC,-,H37Ra,-,1.56 µM
NS(=O)(=O)c1ccc(CN2CCCC[C@H]2[C@@H](O)c2cc(C(F)(F)F)nc3c(C(F)(F)F)cccc23)cc1,-,MIC,-,-,-,15 µM
OC[C@H]1O[C@@H](O)C[C@@H](O)[C@@H]1O,-,MIC,-,H37Rv,agar,341.5 µM
CCN1CCc2c(sc(NC(=O)c3c(F)c(F)c(F)c(F)c3F)c2C(=O)NC)C1,-,EC50,-,ATCC 35822,turbidity,1.9 µM
COC1CC2CCC(C)C(O)(O2)C(=O)C(=O)N2CCCCC2C(=O)OC(C(C)CC2CCC(O)C(OC)C2)CC(=O)C(C)C=C(C)C(OC(=O)CCCN2CCCC2)C(OC)C(=O)C(C)CC(C)/C=C\C=C/C=C1C,-,MIC,-,H37Rv,BACTEC,≥12.5 µg/mL
CCn1cc(C(=O)N=Nc2c(O)[nH]c3ccccc23)c(=O)c2ccc(C)nc21,-,MIC,-,-,-,100 µg/mL
CCOC(=O)c1c(NC(=O)C2C=C(C(F)(F)F)C=C2C(F)(F)F)sc2c1CCCC2,-,MIC,-,H37Rv,resazurin,0.177 µg/mL
Nc1nc(N)c2nc3c(nc2n1)CCCCCCCCCC3,-,MIC bound,-,H37Rv,BACTEC,>12.5 µg/mL
CCOC(=O)c1c(NC(=O)c2c(F)c(F)c(F)c(F)c2F)sc2c1CCOC2,-,EC90,-,-,low oxygen,1 µM
CO[C@H]1/C=C/O[C@@]2(C)Oc3c(C)c(O)c4c(O)c(c(/C=N/N5CCN(C)CC5)c(O)c4c3C2=O)NC(=O)/C(C)=C\C=C\[C@H](C)[C@H](O)[C@@H](C)[C@@H](O)[C@@H](C)[C@H](OC(C)=O)[C@@H]1C,-,MIC,-,Isolate 192,broth dilution,2.5 µg/mL
Nc1cccc(-c2cc(C(F)(F)F)nc3c(C(F)(F)F)cccc23)c1,-,MIC,-,-,-,60 µM
CO[C@H]1/C=C/O[C@@]2(C)Oc3c(C)c(O)c4c(O)c(c5c(c4c3C2=O)NC2(CCN(CC(C)C)CC2)N=5)=NC(=O)/C(C)=C\C=C\[C@H](C)[C@H](O)[C@@H](C)[C@@H](O)[C@@H](C)[C@H](OC(C)=O)[C@@H]1C,-,MIC,-,H37Rv,-,0.035 µg/mL
N/C(=N\NC(CC(=O)c1ccccc1)c1ccncc1)c1ccccn1,-,MIC,-,H37Rv,-,8 µg/mL
COc1cc(C)cc2c1C(=O)C=C(c1c(C)cc3c(c1O)C(=O)C=CC3=O)C2=O,-,MIC,-,H37Rv,-,>100 µg/mL
O=C(O)c1cnc(Cl)cn1,-,MIC,-,BDDIS 20,-,256 µg/mL
Nc1c(NC(=O)CCc2ccccc2)cc(Cl)cc1[N+](=O)[O-],-,MIC,-,Isolate 192,broth dilution,>100 µg/mL
CCOC1Oc2ccc(C)cc2C(=O)/C1=C/Nc1nc2ccccc2s1,-,MIC,-,H37Rv,-,>100 µg/mL
CCN1CCc2c(sc(NC(=O)c3c(F)c(F)c(F)c(F)c3F)c2C#N)C1,katG Y155 truncation mutant,EC50,-,H37Rv,turbidity,10 µM
N/C(=N\NC(CC(=O)c1ccc(-c2ccccc2)cc1)c1ccncc1)c1ccccn1,-,MIC,-,H37Rv,-,16 µg/mL
C[C@]1(COc2ccc(N3CCC(COCc4ccc(C(F)(F)F)cc4)CC3)cc2)Cn2cc([N+](=O)[O-])nc2O1,-,MIC,-,H37Rv,-,0.024 µg/mL
Cc1ccc2occ(/C=N/NC(=O)c3ccncc3)c(=O)c2c1,-,MIC,-,H37Rv,-,1 µg/mL
C1CN1P1(N2CC2)=NP(N2CC2)(N2CC2)=NP(N2CC2)(N2CC2)=N1,-,inhibition,128 µg/mL,H37Rv,BACTEC,97%
Cc1cc2c(c(C)c1CCO)C(=O)[C@H](C)C2,-,MIC,-,H37Rv,agar,183.5 µM
NC(=O)C1=C[C@H]2[C@H]3C=C[C@@]2(O)C(=O)O[C@@H]3O1,-,MIC,-,H37Rv,BACTEC,6.25 µg/mL
Cc1c2cc[n+](CCN3CCCCC3)cc2c(C)c2c1[nH]c1ccc(O)cc12,-,MIC,-,H37Ra,-,6.25 µM
CC1NCCCN(CCN(C)C)CCCNC(C)c2cccc1n2,-,inhibition,6.25 µg/mL,H37Rv,resazurin,5%
N/C(=N\NC(CC(=O)c1ccc(Cl)cc1)c1ccncc1)c1ccccn1,-,MIC,-,H37Rv,-,2 µg/mL
O=C(NNC(=O)c1cccc2ccccc12)c1ccc(Cl)cc1Cl,-,MIC bound,-,H37Rv,BACTEC,>12.5 µg/mL
CCOC(=O)c1c(NC(=O)c2ccccc2)sc2c1CCN(C(=O)OC(C)(C)C)C2,-,MIC,-,H37Rv,resazurin,>100 µg/mL
O=C1OC(C[N+]2(Cc3ccc([N+](=O)[O-])o3)CCCCC2)CN1/N=C/c1ccc([N+](=O)[O-])o1,-,inhibition,12.5 µg/mL,H37Rv,BACTEC,9%
CCn1cc(C(=O)N=Nc2c(O)n(CC)c3ccccc23)c(=O)c2ccc(C)nc21,-,MIC,-,-,-,200 µg/mL

Repeating the final 6 entries:

compound | changes | measure | dose | strain | method | value
CC1NCCCN(CCN(C)C)CCCNC(C)c2cccc1n2 | - | inhibition | 6.25 µg/mL | H37Rv | resazurin | 5%
N/C(=N\NC(CC(=O)c1ccc(Cl)cc1)c1ccncc1)c1ccccn1 | - | MIC | - | H37Rv | - | 2 µg/mL
O=C(NNC(=O)c1cccc2ccccc12)c1ccc(Cl)cc1Cl | - | MIC bound | - | H37Rv | BACTEC | >12.5 µg/mL
CCOC(=O)c1c(NC(=O)c2ccccc2)sc2c1CCN(C(=O)OC(C)(C)C)C2 | - | MIC | - | H37Rv | resazurin | >100 µg/mL
O=C1OC(C[N+]2(Cc3ccc([N+](=O)[O-])o3)CCCCC2)CN1/N=C/c1ccc([N+](=O)[O-])o1 | - | inhibition | 12.5 µg/mL | H37Rv | BACTEC | 9%
CCn1cc(C(=O)N=Nc2c(O)n(CC)c3ccccc23)c(=O)c2ccc(C)nc21 | - | MIC | - | - | - | 200 µg/mL

ECn: concentration that inhibits the pathogen or its effect by n%. MIC bound: limit read from a one-dose screen. Inhibition is in % at the dose shown (toxicity tests: loss of growth or viability). Blank or dashed fields: not listed here.